Compound potency records, mixed from different reports. Data source: NIAID ChemDB in PubChem.

All rows: tests in culture; agent: Candida albicans; read-out: MIC90

An empty or dashed field is not shown. Lines come from different laboratories, so protocols vary. MIC50, MIC90 and the like: level of inhibition, or share of isolates inhibited.

| SMILES | strain | setting | result |
|---|---|---|---|
| C[C@H]1[C@H](O)[C@@H](C)/C=C/C=C/C=C/C=C/C=C/C=C/C=C/[C@H](O[C@@H]2O[C@H](C)[C@@H](O)[C@H](N)[C@@H]2O)C[C@@H]2O[C@](O)(C[C@@H](O)C[C@@H](O)CC[C@H](O)[C@@H](O)C[C@@H](O)CC(=O)O[C@H]1C)C[C@H](O)[C@H]2C(=O)O | 50 isolates |  | 0.2 µg/mL |
| C=CCN1C[C@H](OC[C@@]23C[C@@H]4[C@H](C)CC[C@H]4[C@@]4(C=O)C[C@@H]2CC(C(C)C)[C@@]34C(=O)O)O[C@H](C)C1 | 16 isolates |  | 0.03 µg/mL |
| C[C@@H](c1nc(-c2ccc(C#N)cc2)cs1)[C@](O)(Cn1cnnc1)c1ccc(F)cc1F | 34 isolates |  | 0.03 µg/mL |
| Fc1ccc(C(c2cccc3ccccc23)n2ccnc2)cc1 | 23 strains |  | 16 µg/mL |
| C[C@@H](c1ncncc1F)[C@](O)(Cn1cncn1)c1ccc(F)cc1F | Isolate M27-T-micro | 24 h | 0.19 µg/mL |
| COc1ccc([C@@H](Cc2ccc(Cl)cc2Cl)n2ccnc2)cc1 | 34 strains |  | 4 µg/mL |
| Nc1[nH]c(=O)ncc1F | 166 isolates |  | 4 µg/mL |
| CC(=O)OCC1C=C(c2cccc(Cl)c2)C(=O)O1 | 9 isolates fluconazole-resistant |  | 2 µg/mL |
| C[C@@H](SC1COC(/C=C/C=C/c2ccc(C#N)cc2F)OC1)[C@](O)(Cn1cncn1)c1ccc(F)cc1F | 25 isolates fluconazole-resistant |  | 4 µg/mL |
| CCC(C)n1ncn(-c2ccc(N3CCN(c4ccc(OC[C@H]5CO[C@](Cn6cncn6)(c6ccc(Cl)cc6Cl)O5)cc4)CC3)cc2)c1=O | 19 strains (fluconazole-susceptible) |  | 0.25 µg/mL |
| CCC(C)n1ncn(-c2ccc(N3CCN(c4ccc(OC[C@H]5CO[C@](Cn6cncn6)(c6ccc(Cl)cc6Cl)O5)cc4)CC3)cc2)c1=O | 50 isolates |  | 0.4 µg/mL |
| c1ccc(C(c2nccc3ccccc23)n2ccnc2)cc1 | 44 strains |  | 256 µg/mL |
| C[C@@H](c1nc(-c2ccc(C#N)cc2)cs1)[C@](O)(Cn1cnnc1)c1ccc(F)cc1F | 660 isolates |  | 0.03 µg/mL |
| CCC(C)n1ncn(-c2ccc(N3CCN(c4ccc(OC[C@H]5CO[C@](Cn6cncn6)(c6ccc(Cl)cc6Cl)O5)cc4)CC3)cc2)c1=O | TIMM3315 (azole-resistant) |  | >51 µg/mL |
| Fc1ccc(COc2ccc(C(c3cccc4ccccc34)n3ccnc3)cc2)c(F)c1.O=[N+]([O-])O | 17 strains |  | ≥256 µg/mL |
| CCC(C)CC(C)CCCCCCCCC(=O)N[C@H]1C[C@@H](O)[C@H](NCCN)NC(=O)[C@@H]2[C@@H](O)CCN2C(=O)[C@H]([C@H](O)CCN)NC(=O)[C@H]([C@H](O)[C@@H](O)c2ccc(O)cc2)NC(=O)[C@@H]2C[C@@H](O)CN2C(=O)[C@H]([C@@H](C)O)NC1=O | 2453 strains |  | 0.25 µg/mL |
| C[C@H]1[C@H](O)[C@@H](C)/C=C/C=C/C=C/C=C/C=C/C=C/C=C/[C@H](O[C@@H]2O[C@H](C)[C@@H](O)[C@H](N)[C@@H]2O)C[C@@H]2O[C@](O)(C[C@@H](O)C[C@@H](O)CC[C@H](O)[C@@H](O)C[C@@H](O)CC(=O)O[C@H]1C)C[C@H](O)[C@H]2C(=O)O | 50 isolates |  | 0.1 µg/mL |
| COc1ccc(C(O)Cc2ccc(Cl)cc2)cc1 | 28 strains |  | 128 µg/mL |
| Clc1cc(Cl)c2c(c1)CCc1ccccc1C2n1ccnc1 | 12 isolates |  | 0.03 µg/mL |
| CCC(C)n1ncn(-c2ccc(N3CCN(c4ccc(OC[C@H]5CO[C@](Cn6cncn6)(c6ccc(Cl)cc6Cl)O5)cc4)CC3)cc2)c1=O | 19 strains |  | 1 µg/mL |
| C[C@H]1[C@H](O)[C@@H](C)/C=C/C=C/C=C/C=C/C=C/C=C/C=C/[C@H](O[C@@H]2O[C@H](C)[C@@H](O)[C@H](N)[C@@H]2O)C[C@@H]2O[C@](O)(C[C@@H](O)C[C@@H](O)CC[C@H](O)[C@@H](O)C[C@@H](O)CC(=O)O[C@H]1C)C[C@H](O)[C@H]2C(=O)O | ATCC 90028 |  | 0.2 µg/mL |
| C[C@H]1[C@H](O)[C@@H](C)/C=C/C=C/C=C/C=C/C=C/C=C/C=C/[C@H](O[C@@H]2O[C@H](C)[C@@H](O)[C@H](N)[C@@H]2O)C[C@@H]2O[C@](O)(C[C@@H](O)C[C@@H](O)CC[C@H](O)[C@@H](O)C[C@@H](O)CC(=O)O[C@H]1C)C[C@H](O)[C@H]2C(=O)O | 16 isolates fluconazole-susceptible |  | 0.25 µg/mL |
| COc1ccc(CC(c2ccc(OC)cc2)n2cnnc2)cc1 | 28 strains |  | >256 µg/mL |
| COc1ccc(C(Cc2cccc(Cl)c2)n2ccnc2)cc1 | 34 strains |  | 256 µg/mL |
| C[C@@H](c1ncncc1F)[C@](O)(Cn1cncn1)c1ccc(F)cc1F | 32 strains |  | 0.5 µg/mL |
| CC(=O)N1CCN(c2ccc(OC[C@H]3CO[C@](Cn4ccnc4)(c4ccc(Cl)cc4Cl)O3)cc2)CC1 | 50 isolates |  | 0.2 µg/mL |
| CC(N1CCN(c2ccc(-n3cnn(Cc4ccc(C(F)(F)F)cc4)c3=O)cc2F)CC1)C(O)(Cn1cncn1)c1ccc(F)cc1F | 6 strains (fluconazole-resistant) |  | 0.19 µg/mL |
| Clc1ccc(C(Cn2ccnc2)OCc2csc3c(Cl)cccc23)c(Cl)c1 | 16 strains |  | 2 µg/mL |
| COc1ccc(C(Cc2ccc(F)cc2)n2ccnc2)cc1 | 34 strains |  | 128 µg/mL |
| Clc1ccc(COc2ccc(C(c3ccc4ccccc4c3)n3ccnc3)cc2)c(Cl)c1 | 16 strains |  | ≥256 µg/mL |
| Nc1[nH]c(=O)ncc1F | 97 isolates |  | 0.5 µg/mL |
| Clc1ccccc1C(c1ccccc1)(c1ccccc1)n1ccnc1 | 16 strains |  | 2 µg/mL |
| CCC(C)n1ncn(-c2ccc(N3CCN(c4ccc(OC[C@H]5CO[C@](Cn6cncn6)(c6ccc(Cl)cc6Cl)O5)cc4)CC3)cc2)c1=O | 13 isolates fluconazole-resistant |  | >16 µg/mL |
| COc1ccc(C(Cc2ccccc2-n2cccc2)n2ccnc2)cc1 | 34 strains |  | 64 µg/mL |
| Clc1ccc(COc2ccc(C(c3ccc(-c4ccccc4)cc3)n3ccnc3)cc2)c(Cl)c1.O=[N+]([O-])O | 17 strains |  | ≥256 µg/mL |
| COc1ccc(C(c2cccc3ccccc23)n2ccnc2)cc1 | 23 strains |  | 128 µg/mL |
| COc1ccc(C(C(Cc2ccc(Cl)cc2Cl)c2ccc(Cl)cc2)n2ccnc2)cc1 | 28 strains |  | 16 µg/mL |
| C[C@H]1[C@H](O)[C@@H](C)/C=C/C=C/C=C/C=C/C=C/C=C/C=C/[C@H](O[C@@H]2O[C@H](C)[C@@H](O)[C@H](N)[C@@H]2O)C[C@@H]2O[C@](O)(C[C@@H](O)C[C@@H](O)CC[C@H](O)[C@@H](O)C[C@@H](O)CC(=O)O[C@H]1C)C[C@H](O)[C@H]2C(=O)O | 166 isolates |  | 1 µg/mL |
| Nc1[nH]c(=O)ncc1F | 126 strains |  | 8 µg/mL |
| C[C@@H](c1ncncc1F)[C@](O)(Cn1cncn1)c1ccc(F)cc1F |  |  | 0.063 µg/mL |
| COc1ccc(C(Cc2ccccc2[N+](=O)[O-])n2ccnc2)cc1 | 34 strains |  | >256 µg/mL |
| COc1ccc(C(Cc2ccc(Cl)cc2)n2cnnc2)cc1 | 28 strains |  | 256 µg/mL |
| CC(C)C1C[C@H]2C[C@]3(C=O)[C@@H]4CC[C@@H](C)[C@H]4C[C@@]2(CO[C@H]2CN(C4CC4)C[C@@H](C)O2)[C@]13C(=O)O | 16 isolates/fluconazole resistant |  | 0.06 µg/mL |
| CCC(C)n1ncn(-c2ccc(N3CCN(c4ccc(OC[C@H]5CO[C@](Cn6cncn6)(c6ccc(Cl)cc6Cl)O5)cc4)CC3)cc2)c1=O |  |  | 0.25 µg/mL |
| COc1ccc(C(Cc2ccc(N)cc2)n2ccnc2)cc1 | 34 strains |  | 16 µg/mL |
| Clc1ccc(C(c2cccc3ccccc23)n2ccnc2)cc1 | 23 strains |  | 4 µg/mL |
| Fc1ccc(COc2ccc(C(c3ccc(-c4ccccc4)cc3)n3ccnc3)cc2)cc1.O=[N+]([O-])O | 16 strains |  | ≥256 µg/mL |
| COc1ccc(C(Cc2ccccc2N)n2ccnc2)cc1 | 34 strains |  | 128 µg/mL |
| CCC(C)CC(C)CCCCCCCCC(=O)N[C@H]1C[C@@H](O)[C@H](NCCN)NC(=O)[C@@H]2[C@@H](O)CCN2C(=O)[C@H]([C@H](O)CCN)NC(=O)[C@H]([C@H](O)[C@@H](O)c2ccc(O)cc2)NC(=O)[C@@H]2C[C@@H](O)CN2C(=O)[C@H]([C@@H](C)O)NC1=O | 206 isolates |  | 0.125 µg/mL |
| CCC(C)n1ncn(-c2ccc(N3CCN(c4ccc(OC[C@@H]5CO[C@@](Cn6cncn6)(c6ccc(F)cc6F)O5)cc4)CC3)cc2)c1=O | 10 strains |  | 0.03 µg/mL |
| C=C(C)CN1C[C@H](OC[C@@]23C[C@@H]4[C@H](C)CC[C@H]4[C@@]4(C=O)C[C@@H]2CC(C(C)C)[C@@]34C(=O)O)O[C@H](C)C1 | 16 isolates/fluconazole resistant |  | 0.015 µg/mL |
| C[C@H]1[C@H](O)[C@@H](C)/C=C/C=C/C=C/C=C/C=C/C=C/C=C/[C@H](O[C@@H]2O[C@H](C)[C@@H](O)[C@H](N)[C@@H]2O)C[C@@H]2O[C@](O)(C[C@@H](O)C[C@@H](O)CC[C@H](O)[C@@H](O)C[C@@H](O)CC(=O)O[C@H]1C)C[C@H](O)[C@H]2C(=O)O | 126 strains |  | 0.12 µg/mL |
| OC(Cn1cncn1)(Cn1cncn1)c1ccc(F)cc1F | 50 isolates |  | 40 µg/mL |
| COc1ccc(CC(c2ccc(OC)cc2)n2ccnc2)cc1 | 28 strains |  | 128 µg/mL |
| CCC(C)n1ncn(-c2ccc(N3CCN(c4ccc(OC[C@H]5CO[C@](Cn6cncn6)(c6ccc(Cl)cc6Cl)O5)cc4)CC3)cc2)c1=O | 37 isolates |  | 0.0313 µg/mL |
| COc1ccccc1C1NC(c2ccccc2OC)C2(C)CCCC1/C2=N\O |  |  | >128 µg/mL |
| CC(N1CCN(c2ccc(-n3cnn(Cc4ccc(OC(F)(F)F)cc4)c3=O)cc2F)CC1)C(O)(Cn1cncn1)c1ccc(F)cc1F | 6 strains (fluconazole-resistant) |  | 0.19 µg/mL |
| Cc1ccc(C(c2cccc3ccccc23)n2ccnc2)cc1 | 23 strains |  | 64 µg/mL |

6 of the rows above, restated:

| SMILES | strain | setting | result |
|---|---|---|---|
| CCC(C)n1ncn(-c2ccc(N3CCN(c4ccc(OC[C@H]5CO[C@](Cn6cncn6)(c6ccc(Cl)cc6Cl)O5)cc4)CC3)cc2)c1=O | TIMM3315 (azole-resistant) |  | >51 µg/mL |
| Clc1ccc(C(Cn2ccnc2)OCc2csc3c(Cl)cccc23)c(Cl)c1 | 16 strains |  | 2 µg/mL |
| COc1ccc(C(Cc2ccccc2-n2cccc2)n2ccnc2)cc1 | 34 strains |  | 64 µg/mL |
| COc1ccc(CC(c2ccc(OC)cc2)n2cnnc2)cc1 | 28 strains |  | >256 µg/mL |
| CCC(C)n1ncn(-c2ccc(N3CCN(c4ccc(OC[C@H]5CO[C@](Cn6cncn6)(c6ccc(Cl)cc6Cl)O5)cc4)CC3)cc2)c1=O |  |  | 0.25 µg/mL |
| CCC(C)CC(C)CCCCCCCCC(=O)N[C@H]1C[C@@H](O)[C@H](NCCN)NC(=O)[C@@H]2[C@@H](O)CCN2C(=O)[C@H]([C@H](O)CCN)NC(=O)[C@H]([C@H](O)[C@@H](O)c2ccc(O)cc2)NC(=O)[C@@H]2C[C@@H](O)CN2C(=O)[C@H]([C@@H](C)O)NC1=O | 206 isolates |  | 0.125 µg/mL |